Measured values from several laboratories, pooled; numbers as filed in NIAID ChemDB.

All rows: tests in culture; species: Candida albicans; endpoint: MIC

Rows are shuffled and stem from different studies. An empty or dashed field is not shown. a–b is a range or a potency band.

structure,strain,value
O=c1c2ccccc2cnn1Cc1nnc(Nc2ccccc2)s1,ATCC 10231,512 µg/mL
CCn1cc(C(=O)O)c(=O)c2cc(F)c(N3C(=O)C(C)NC(=O)C3C)cc21,ATCC 2091,30.4 µg/mL
O=C(N/N=C/c1ccc([N+](=O)[O-])o1)N1CCCCC1,,100 µg/mL
C(=C\c1ccccc1)/CNc1ccccc1Cn1ccnc1,CDC385,0.75 µg/mL
O=C1/C(=C/c2ccccc2O)COc2ccccc21,,12.5 µg/mL
COC(=O)[C@H](C)OC(=O)[C@H](Cc1cnc[nH]1)NC(=O)CNC(=O)[C@H](Cc1cnc[nH]1)NC(=O)COc1c(Br)c(=O)oc2ccccc12,,6.25 µg/mL
CCCCCCCCOc1ccc(-c2ccc(C(=O)NC3CC(NCCN)CNC(=O)[C@@H]4[C@@H](O)[C@@H](C)CN4C(=O)[C@@H](CO)NC(=O)[C@H]([C@H](O)Cc4ccccc4)NC(=O)[C@@H]4C[C@@H](O)CN4C(=O)[C@H]([C@@H](C)O)NC3=O)cc2)cc1,98-234,0.5 µg/mL
O=c1c2ccccc2cnn1Cc1n[nH]c(=S)n1Cc1ccccc1,ATCC 10231,128 µg/mL
CCCCC/C=C\C/C=C\CCCCCCCC(=O)N[C@H]1C[C@@H](O)[C@@H](O)NC(=O)[C@@H]2[C@@H](O)[C@@H](C)CN2C(=O)[C@H]([C@H](C)O)NC(=O)[C@H]([C@H](O)[C@@H](O)c2ccc(O)cc2)NC(=O)[C@@H]2C[C@@H](O)CN2C(=O)[C@H]([C@H](C)O)NC1=O,,0.625 µg/mL
COc1ccc(C[C@H](N)C(=O)N[C@H]2[C@@H](O)[C@H](n3cnc4c(N)ncnc43)O[C@@H]2C(=O)O)cc1,FP-618,0.8 µg/mL
O=C1/C(=C/c2ccc3c(c2)OCO3)COc2ccc(-c3ccccc3)cc21,,50 µg/mL
O=c1c2ccccc2cnn1CCc1n[nH]c(=S)n1-c1ccccc1,ATCC 10231,512 µg/mL
C[N+](C)(C)CCOP(=O)([O-])OCCCCCCCCCCCCCCCCCCCCCCOP(=O)([O-])OCC[N+](C)(C)C,,1.25 µg/mL
O=c1c2ccccc2cnn1CCc1n[nH]c(=S)n1-c1ccc(Cl)cc1,ATCC 10231,512 µg/mL
Cc1c(O)cccc1C(=O)N[C@@H](CSc1ccccc1)[C@H](O)CN1C[C@H]2CCCC[C@H]2C[C@H]1C(=O)NC(C)(C)C,I44B,>64 µg/mL
CC(N1CCN(c2ccc(-n3cnnn3)cc2)C1=O)[C@@](O)(Cn1cncn1)c1ccc(F)cc1F,CA383,>16 µg/mL
O=c1c2ccccc2cnn1Cc1nnc(Nc2ccc(Cl)cc2)s1,ATCC 10231,32 µg/mL
CCC(C)CC(C)CCCCCCCCC(=O)NC1C[C@H](O)[C@@H](O)NC(=O)[C@@H]2[C@@H](O)[C@@H](C)CN2C(=O)[C@H]([C@H](O)CC(N)=O)NC(=O)[C@H](C(O)[C@H](O)c2ccc(O)cc2)NC(=O)[C@@H]2C[C@@H](O)CN2C(=O)[C@H]([C@@H](C)O)NC1=O,,0.12–2 µg/mL
C(/C=C/c1ccccc1)=Nc1ccccc1CN1CCOCC1,CDC385,>100 µg/mL
Cc1ccccc1/C=N\N(C)Cc1cccc2ccccc12,,>64 µg/mL
CCCCCOc1ccc(-c2ccc(-c3ccc(C(=O)N[C@H]4C[C@@H](O)[C@@H](O)NC(=O)[C@@H]5[C@@H](O)[C@@H](C)CN5C(=O)[C@H]([C@H](C)O)NC(=O)[C@H]([C@H](O)[C@@H](O)c5ccc(O)cc5)NC(=O)[C@@H]5C[C@@H](O)CN5C(=O)[C@H]([C@H](C)O)NC4=O)cc3)cc2)cc1,4 isolates,0.08 µg/mL
O=C1/C(=C/c2ccc(Cl)cc2)COc2ccccc21,,25 µg/mL
CCCCCCCCCCn1cc[n+](C)c1,,250 µg/mL
COc1ccc(/C=C2\COc3ccccc3C2=O)cc1,,50 µg/mL
COC(=O)[C@H](CC(C)C)NC(=O)CNC(=O)[C@@H](NC(=O)[C@H](Cc1ccccc1)NC(=O)COc1cc(=O)oc2ccccc12)[C@@H](C)O,,12.5 µg/mL
O=[N+]([O-])c1ccc(/C=N/NC(=S)N2CCOCC2)o1,,80 µg/mL
C(/C=C/c1ccccc1)=Nc1ccccc1Cn1ccnc1,CDC385,100 µg/mL
C[C@@H](N1CCN(c2ccc(-n3cnnn3)cc2)C1=O)[C@@](O)(Cn1cncn1)c1ccc(F)cc1F,TIMM1756,4 µg/mL
COC(=O)[C@@H]1CCCN1C(=O)CNC(=O)[C@H](C)NC(=O)[C@@H]1CCCN1C(=O)c1ccccc1-c1cnc(C)[nH]1,,25 µg/mL
COc1cc(/C=N\N(C)Cc2cccc3ccccc23)cc(OC)c1OC,,>64 µg/mL
Nc1ncc(/C=C/c2ccc([N+](=O)[O-])o2)nn1,,10 µg/mL
CCCCCCCCCCCC[n+]1cc[nH]c1C(C)O,,8 µg/mL
NC(=O)N/N=C/c1ccc([N+](=O)[O-])o1,,100 µg/mL
O=C1/C(=C/c2ccccc2[N+](=O)[O-])CCc2ccccc21,,100 µg/mL
Clc1ccc(COC(Cn2ccnc2)c2ccc(Cl)cc2Cl)c(Cl)c1,,110.8 µg/mL
C(=C\c1ccccc1)/CNc1ccc(CN2CCOCC2)cc1,CDC385,>100 µg/mL
COc1cc(O)c2c(c1)C(=O)c1c(cc3c(c1O)-c1c(cc(C)c(C(=O)NC(CO)C(=O)O)c1O)[C@H](OC1OC(C)C(O)C(OC4OCC(O)C(O)C4O)C1O)C3O)C2=O,ATCC 90028,6.25 µg/mL
COc1ccc(CCN(C)CCCC(C#N)(c2ccc(OC)c(OC)c2)C(C)C)cc1OC,66 strains,334 µg/mL
COc1cc(/C=C2\COc3ccccc3C2=O)ccc1O,,50 µg/mL
O=c1c2ccccc2cnn1CCc1n[nH]c(=S)n1CCc1ccccc1,ATCC 10231,256 µg/mL
O=[N+]([O-])c1ccccc1Cn1ccnc1,CDC385,100 µg/mL
O=C1/C(=C/c2ccc3c(c2)OCO3)CCc2ccccc21,,50 µg/mL
CN1CCN(C(=S)N/N=C/c2ccc([N+](=O)[O-])o2)CC1,,80 µg/mL
COc1ccc2c(c1)C(=O)/C(=C/c1ccc3c(c1)OCO3)CO2,,25 µg/mL
CC1NC(=O)C(C)N(c2cc3c(cc2F)c(=O)c(C(=O)O)cn3Cc2ccccc2)C1=O,ATCC 2091,50.2 µg/mL
CCCCCCCCCCCCCCCC(=O)NC1CC(O)C(O)NC(=O)C2C(O)C(C)CN2C(=O)C(C(O)CC(N)=O)NC(=O)C(C(O)C(O)c2ccc(O)c(OS(=O)(=O)O)c2)NC(=O)C2CC(O)CN2C(=O)C(C(C)O)NC1=O,,0.16 µg/mL
Cc1ccc(Nc2nnc(Cn3ncc4ccccc4c3=O)s2)cc1,ATCC 10231,128 µg/mL
C(=C\c1ccccc1)/CNc1cccc(CN2CCOCC2)c1,CDC385,100 µg/mL
Cc1ncc(-c2ccc(I)cc2C(=O)N[C@H](C(=O)N[C@@H](C)C(=O)N[C@@H](Cc2cnc[nH]2)C(=O)N2CCC[C@H]2C(=O)O)[C@@H](C)O)[nH]1,,6.25 µg/mL
CCCCCCCCCCCCCCCC(=O)N[C@H]1C[C@@H](O)[C@@H](O)NC(=O)[C@@H]2[C@@H](O)[C@@H](C)CN2C(=O)[C@H]([C@@H](C)O)NC(=O)[C@H]([C@H](O)[C@@H](O)c2ccc(O)cc2)NC(=O)[C@@H]2C[C@@H](O)CN2C(=O)[C@H]([C@@H](C)O)NC1=O,,0.2–6.3 µg/mL
O=c1c2ccccc2cnn1CCc1nnc(NCc2ccccc2)s1,ATCC 10231,512 µg/mL
C(=C\c1ccccc1)/CNc1ccc(Cn2ccnc2)cc1,CDC385,50 µg/mL
Cc1cccc(/C=N\N(C)Cc2cccc3ccsc23)c1,,>64 µg/mL

Repeating the first 4 entries:

structure	strain	value
O=c1c2ccccc2cnn1Cc1nnc(Nc2ccccc2)s1	ATCC 10231	512 µg/mL
CCn1cc(C(=O)O)c(=O)c2cc(F)c(N3C(=O)C(C)NC(=O)C3C)cc21	ATCC 2091	30.4 µg/mL
O=C(N/N=C/c1ccc([N+](=O)[O-])o1)N1CCCCC1		100 µg/mL
C(=C\c1ccccc1)/CNc1ccccc1Cn1ccnc1	CDC385	0.75 µg/mL